Data: US20240352542A1, “MEANS AND METHODS FOR DIAGNOSING A VIRAL INFECTION OR A DISEASE ASSOCIATED THEREWITH” (Bruker Biospin GmbH & Co. KG, priority 2023, published 2024)
Some compounds share one wording; it may come from a single statement.

Assay: 1H NMR detection and quantification of ddhNs in urine, SARS-CoV-2 (+) cohort vs controls
Parameters: species or system human
Settings: urine of acute phase SARS-CoV-2 patients, normalised to creatinine
For Nc1ccn([C@@H]2OC(CO)=C[C@H]2O)c(=O)n1 [ddhC (1), 3′-deoxy-3′,4′-didehydro-cytidine], the normalized urinary concentration was greater than 20.0 μM/mM creatinine.
Work on Nc1ccn([C@@H]2OC(C(=O)O)=C[C@H]2O)c(=O)n1 [ddhC-5′CA (2), 3′,5′-dideoxy-3′,4′-didehydrocytidine-5′-carboxylic acid] yielded a normalized urinary concentration of roughly 10.0 μM/mM creatinine.
With Nc1ccn([C@@H]2OC(CSCC[C@H](N)C(=O)O)=C[C@H]2O)c(=O)n1 [ddhC-5′Hcy (4), 3′,5′-dideoxy-3′,4′-didehydrocytidine-5′-homocysteine] the normalized urinary concentration was “up to 7.0 μM/mM creatinine”.
Work on O=c1ccn([C@@H]2OC(CO)=C[C@H]2O)c(=O)[nH]1 [ddhU (3), 3′-deoxy-3′,4′-didehydro-uridine] yielded a normalized urinary concentration greater than 10.0 μM/mM creatinine.

Same assay, conditions: ~32 scans, 600 MHz, unfractionated urine
With CSCC1=C[C@@H](O)[C@H](n2ccc(N)nc2=O)O1 [ddhC-5′MeS (7), 3′,5′-dideoxy-3′,4′-didehydrocytidine-5′-thiomethyl] the “detectability in standard urine 1H NMR acquisition” value (“detectability” below) was “below the limit of detection”.
For C[S+](CCC(N)C(=O)O)CC1=C[C@@H](O)[C@H](n2ccc(N)nc2=O)O1 (stereo partly shown) [ddhC-5′Met (8), 3′,5′-dideoxy-3′,4′-didehydrocytidine-5′-Methionine], the “detectability” value was “below the limit of detection”.
With C[S+]([O-])CC1=C[C@@H](O)[C@H](n2ccc(N)nc2=O)O1 (stereo partly shown) [ddhC-5′SO (6), 3′,5′-dideoxy-3′,4′-didehydrocytidine-5′-thiomethylsulfoxide] the “detectability” value was “below the limit of detection”.
